Measurements reported in PubChem BioAssay AID504761 (Drosophila RNAi Screening Center, 2011)
Screen: 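Insect host genes that dengue virus relies on to spread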 (primary screen). Cells: D.Mel-2 cells from Drosophila. Reagents: long dsRNA against Drosophila genes. Treatment: infection with dengue virus type 2; dose and infection time not stated. Read-out: 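Per well on two replicate plates, imaging gave the percent of cells positive for viral envelope protein, ranked by infection, and a nuclear count of cells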. Reading the numbers: infection score: higher = more virus-infected cells; cell count: higher = more cells in the well. Active means: 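Very low infection ranking in both replicate wells (chance probability at most 0.065), then a retest showing infection dropped 1.5-fold or more at p below 0.05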. Calls: active = confirmed: knock-down lowers infection; inactive = not picked or not confirmed.
In all, the deposit lists about 22,000 reagents; below is a random part of those with a known target gene and a result. Over the whole deposit, 116 (0.52%) were called active. 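Calls depend on retest data that are not deposited; infection was ranked per plate without normalising between plates; the unit of the infection score is not given.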 Raw values vary from plate to plate and are shown uncorrected. Not all columns of the deposit are shown. The record does not give: the amount of reagent, the time to read-out.

With knock-down of Cpr5C [DRSC18340], the record shows infection score, replicate 1 = 2.54; cell count, replicate 1 = 6822; inactive.
For wbl [DRSC07718], the values are infection score, replicate 1 = 0.72; cell count, replicate 1 = 6253; inactive.
Against wbl [DRSC26561], the values are infection score, replicate 1 = 6.98; cell count, replicate 1 = 6015; inactive.
Depletion of MAPk-Ak2 [DRSC18678] resulted in: infection score, replicate 1 = 4.43; cell count, replicate 1 = 6527; inactive.
Against MAPk-Ak2 [DRSC29642], the values are infection score, replicate 1 = 25.7; cell count, replicate 1 = 6092; inactive.
After knock-down of CG45002 [DRSC20144] the results were infection score, replicate 1 = 7.6; cell count, replicate 1 = 6212; inactive.
For CG10598 [DRSC19358] the deposit lists infection score, replicate 1 = 10.1; cell count, replicate 1 = 6499; inactive.
With knock-down of CG10598 [DRSC25200], the record shows infection score, replicate 1 = 1.65; cell count, replicate 1 = 6228; inactive.
CR33294 [DRSC22950] gave infection score, replicate 1 = 0.66; cell count, replicate 1 = 6544; inactive.
For CG9933 [DRSC03276], the values are infection score, replicate 1 = 5.71; cell count, replicate 1 = 6564; inactive.
CG9933 [DRSC29443] gave infection score, replicate 1 = 13.4; cell count, replicate 1 = 4692; inactive.
For Lasp [DRSC10379], the entry reads infection score, replicate 1 = 2; cell count, replicate 1 = 5887; inactive.
For Lasp [DRSC23555], the entry reads infection score, replicate 1 = 5.25; cell count, replicate 1 = 5883; inactive.
For CG14352 [DRSC00382], the entry reads infection score, replicate 1 = 0.64; cell count, replicate 1 = 6680; inactive.

Ordered by “infection score, replicate 1” (lowest first): 2 of the entries above
wbl [DRSC07718] — infection score, replicate 1: 0.72; cell count, replicate 1: 6253; Outcome: inactive
wbl [DRSC26561] — infection score, replicate 1: 6.98; cell count, replicate 1: 6015; Outcome: inactive
